The list shows a part of the results, in another mix than the full data. Some salts and complexes are drawn in separate pieces, as the source files them; their charges need not balance. The source made the active and inactive calls. Calls follow the shape of the dose curve; as a rule, active = well fitted falling curve with a large enough effect; inconclusive = small, poorly fitted or top-dose-only effect; inactive = no such curve, though single readings can be large or run the other way.
Assay: qHTS Assay for Inhibitors of the HIV-1 protein Vpr; also: nearly all actives have a fitted effect of over 50% in size
Details: S. pombe RE007 Vpr strain, BacTiter-Glo ATP luminescence, 24 h; at 92.2 µM (top of the series)
For `O=[N+]([O-])c1cc([N+](=O)[O-])c(NCC2CCS(=O)(=O)C2)c([N+](=O)[O-])c1` (stereo not given), the activity change, negative = less growth was inactive: -4.87%. For `CCCCn1nnnc1C(c1cccc2ccccc12)N1CCC(n2c(=O)[nH]c3ccccc32)CC1` (stereo not given), the activity change, negative = less growth was inactive: 1.63%. With `CN1CCN(CCOC(=O)C(O)(c2ccccc2)c2ccccc2)CC1` the activity change, negative = less growth was inactive: 1.13%. For `COc1ccc(NC2CCN(C(=O)OC(C)(C)C)CC2)cc1`, the activity change, negative = less growth was inactive: -13.9%. In the case of `CC(C)c1ccc(C(=O)NCC2(N3CCOCC3)CCCCC2)cc1`, the activity change, negative = less growth was inactive: -21.2%. For `COc1cc(C(=O)NCC2(N3CCCCC3)CCCCC2)ccc1OC(F)F`, the activity change, negative = less growth was inactive: 1.19%. For `O=C(NCC1(N2CCOCC2)CCCCC1)c1cc(=O)[nH]c2ccccc12`, the activity change, negative = less growth was inactive: 4.23%. For `CC(C)(C)n1nnnc1C(c1ccccc1OC(F)(F)F)N1CCC(n2c(=O)[nH]c3ccccc32)CC1` (stereo not given), the activity change, negative = less growth was inactive: 5.47%. In the case of `O=C(NCC1(N2CCCCC2)CCCCC1)c1ccc(OC(F)F)cc1`, the activity change, negative = less growth was inactive: 25.7%. In the case of `O=C(NCC1(N2CCCCC2)CCCCC1)c1cccc([N+](=O)[O-])c1`, the activity change, negative = less growth was inactive: -4.08%. For `CSc1ccc(C(=O)NCC2(N3CCOCC3)CCCCC2)cc1`, the activity change, negative = less growth was inactive: -1.25%. For `CCN1CCC(Nc2ccc(Cl)cc2)CC1`, the activity change, negative = less growth was inactive: 12%. With `N#CC1(Nc2ccccc2)CCN(CCc2ccccc2)CC1` the activity change, negative = less growth was inactive: -7.38%. With `O=c1[nH]c2ccccc2n1C1CCN(C(c2ccccc2OC(F)(F)F)c2nnnn2C2CCCC2)CC1` (stereo not given) the activity change, negative = less growth was inactive: 4.04%. In the case of `O=C(NCC1(N2CCCCC2)CCCCC1)c1cncc(Br)c1`, the activity change, negative = less growth was inactive: -2.33%. For `COc1ccc2c(c1O)-c1c(O)c(OC)cc3c1[C@H](C2)[N+](C)(C)CC3.O=[N+]([O-])c1cc([N+](=O)[O-])c([O-])c([N+](=O)[O-])c1[O-]`, the activity change, negative = less growth was inactive: -22.4%. With `CN1CCC(Nc2cccc(F)c2)CC1` the activity change, negative = less growth was inactive: 15%. With `O=C(OC1CN2CCC1CC2)c1ccc([N+](=O)[O-])cc1` (stereo not given) the activity change, negative = less growth was inactive: 9.86%. With `Cc1ccc(C(=O)NCC2(N(C)C)CCCCC2)o1` the activity change, negative = less growth was inactive: -14.4%. With `CCCOc1ccc(C(=O)NCC2(N(C)C)CCCCC2)cc1OC` the activity change, negative = less growth was inactive: -1.98%. With `COc1ccc(C(c2nnnn2C2CCCC2)N2CCC(n3c(=O)[nH]c4ccccc43)CC2)cc1` (stereo not given) the activity change, negative = less growth was inactive: -2.86%. With `COc1ccc(CN(CCCl)CCCl)cc1Cl` the activity change, negative = less growth was inactive: 4.1%. For `O=[N+]([O-])c1cc([N+](=O)[O-])c(OC2CCCCC2O)c([N+](=O)[O-])c1` (stereo not given), the activity change, negative = less growth was inactive: -2.07%. In the case of `CN(C)c1cccc(C(=O)NCC2(N3CCCCC3)CCCCC2)c1`, the activity change, negative = less growth was inactive: -8.21%. With `CCCCn1nnnc1C(c1ccccc1OC(F)(F)F)N1CCC(n2c(=O)[nH]c3ccccc32)CC1` (stereo not given) the activity change, negative = less growth was inactive: -9.63%. With `CC(C)c1ccc(NC2CCN(C(=O)OC(C)(C)C)CC2)cc1` the activity change, negative = less growth was inactive: 6.77%. With `CCCCn1nnnc1C(c1ccnc2ccccc12)N1CCC(n2c(=O)[nH]c3ccccc32)CC1` (stereo not given) the activity change, negative = less growth was inactive: -1.24%. For `COc1cc(OC)c(C(=O)NCC2(N(C)C)CCCCC2)cc1OC`, the activity change, negative = less growth was inactive: -6.46%. With `O=C(NCC1(N2CCOCC2)CCCCC1)c1cc(F)c(F)cc1Cl` the activity change, negative = less growth was inactive: -10.2%. With `CCC(c1nnnn1C(C)(C)C)N1CCC(n2c(=O)[nH]c3ccccc32)CC1` (stereo not given) the activity change, negative = less growth was inactive: 9.89%.

Source: PubChem BioAssay AID651644 (National Center for Advancing Translational Sciences (NCATS), 2012)
% is scaled to controls: 0 for no effect and ±100 for the full control effect.
